US20250109186A1 (REGENTS OF THE UNIVERSITY OF MINNESOTA, published 2025)

Target: prototypic SARS-CoV-2 spike (Wuhan strain plus D614G), full length (SARS-CoV-2 (prototypic))
Assay: cell-based or functional assay

B1: Nanosota-2A-Fc (Fc fusion)
chain: QVQLQESGGGAVQPGGSLGLSCTASGFNFETSTVGWFRQAPGKENEGVSCINKGYEDTNYADSVKGRFTISRDAAKNTVYLQMDSLQPEDTATYYCAAHNEPYFCDYSGRFRWNEYSYYGQGTQVTVSS[human IgG1 Fc omitted here]
  IC50, live virus plaque reduction neutralization on Vero E6 cells (WT): 0.16 ng/ml and 2 pM
  IC50, pseudovirus entry into human ACE2-expressing HEK293T cells (WT): 0.5 ng/ml and 6.2 pM

B2: Nanosota-3A-Fc (Fc fusion)
chain: QVQLQESGGGLVQAGGSLRLSCAASGSIFSPNTMGWFRQALGKQREMVAVISSIASTQYANFVKGRFTITRDNTKNTVHLQMNSLIPEDTAVYYCYAVDKSQDYWGQGTQVTVSS[human IgG1 Fc omitted here]
  IC50, pseudovirus entry (WT): 74 pM and 5.7 ng/ml

“And” between values parts separate entries of the source, which are not always exact repeats. Equal entries are not always repeated.
